Anti-infective test results gathered from many reports (values: NIAID ChemDB through PubChem).

Common to all: whole-cell or culture tests; organism: HIV-1; cells: CEM; read-out: EC50

Conditions beyond the fields shown may differ between rows.

CN1N=C(N)c2cn([C@@H]3O[C@H](COP(=O)(O)O)[C@@H](O)[C@H]3O)c3ncnc1c23 ; strain or isolate: IIIB ; read by: syncytia ; value: 0.01 µM
COC(=O)Cc1cn([C@@H]2C=C[C@H](COP(=O)(N[C@@H](C)C(=O)OC)Oc3ccccc3)O2)c(=O)[nH]c1=O ; strain or isolate: LAI ; read by: RT activity ; value: 85 µM
COc1ccc(S(=O)(=O)N(CC(C)C)CC(O)CCN2CCN(Cc3cccnc3)C[C@H]2C(=O)NC(C)(C)C)cc1 ; strain or isolate: IIIB ; read by: p24 ; value: <1 µM
O=C(N[C@@H](Cc1ccccc1)[C@H](O)CN(CC1CCCC1)S(=O)(=O)c1ccc(F)cc1)OCc1cccnc1 ; strain or isolate: IIIB ; read by: p24 ; value: <10 µM
NC(=O)[C@@H](N)CO ; strain or isolate: IIIB ; value: 1000 µM
CC1=CC=CC2C1=NC(c1ccncc1)N2Cc1c(F)cccc1F ; value: 3.5 µM
C=CCOC(=O)N[C@@H](Cc1ccccc1)[C@H](O)CN(CC1CCCC1)S(=O)(=O)c1ccc(F)cc1 ; strain or isolate: IIIB ; read by: p24 ; value: <1 µM
O=[N+]([O-])c1cc(COCCO)c(F)cc1F ; read by: cytopathic effect / MTT ; value: >500 µg/mL
CC(C)C[C@H](NC(=O)OC(C)(C)C)C(=O)O[C@H](CN1C[C@H]2CCCC[C@H]2C[C@H]1C(=O)NC(C)(C)C)[C@H](Cc1ccccc1)NC(=O)[C@H](CC(N)=O)NC(=O)c1ccc2ccccc2n1 ; strain or isolate: LAI ; read by: RT activity ; value: 0.137 µM
CC(C)(C)NC(=O)c1ccccc1SC[C@H](O)[C@H](Cc1ccccc1)NC(=O)[C@H](CC(N)=O)NC(=O)c1ccc2ccccc2n1 ; strain or isolate: IIIB ; read by: cytopathic effect / MTT ; value: 0.62 µM
O=C(O)[C@@H]1CCCN1 ; strain or isolate: IIIB ; value: 500 µM
COc1ccc(S(=O)(=O)N(CC(C)C)CC(O)CN[C@H]2c3ccccc3CC2O)cc1 ; strain or isolate: IIIB ; read by: p24 ; value: <1 µM
CCOCn1c(Cc2cccc3ccccc23)c(C)c(=O)[nH]c1=O ; strain or isolate: LAV ; value: 0.167 µM
CC(C)(C)NC(=O)[C@@H]1CN(Cc2cccnc2)CCN1C[C@H](C[C@@H](Cc1ccccc1)C(=O)N[C@H]1c2ccccc2C[C@H]1O)OC(=O)NCCCCOc1ccc(C[C@H](N)C(=O)O)cc1 ; strain or isolate: LAI ; read by: RT activity ; value: 6.4 µM
CC[C@H](C)[C@H](NC(=O)c1cnc2ccccc2n1)C(=O)N[C@@H](Cc1ccccc1)[C@H](O)CN(CC(C)C)S(=O)(=O)c1ccc(F)c(NC(C)=O)c1 ; strain or isolate: IIIB ; read by: p24 ; value: <10 µM
CCc1c(Cc2cccc3ccccc23)n(COCc2ccccc2)c(=O)[nH]c1=O ; strain or isolate: LAV ; value: 0.042 µM
COC(=O)[C@H](C)NP(=O)(OC[C@H]1C=C[C@@H](n2cc(CC(=O)NCCCCCCCCCCCCNC(=O)C(F)(F)F)c(=O)[nH]c2=O)O1)Oc1ccccc1 ; strain or isolate: LAI ; read by: RT activity ; value: >10 µM
CNc1ccccc1S(=O)(=O)c1ccccc1[N+](=O)[O-] ; read by: cytopathic effect / XTT ; value: 0.082 µM
CCCCCCCCCCCCCCCCOP(=O)(OC[C@H]1OC(O)[C@@H](O)[C@@H](O)[C@@H]1O)OC[C@H]1O[C@@H](n2cc(C)c(=O)[nH]c2=O)C[C@@H]1N=[N+]=[N-] ; strain or isolate: LAV-Bru ; read by: RT activity ; setting: 7 d ; value: <0.2 µM
COC(=O)[C@H](C)NP(=O)(OC[C@@H]1C=C[C@H](n2cc(CC(=O)NCCCCCCNC(=O)C(F)(F)F)c(=O)[nH]c2=O)O1)Oc1ccccc1 ; strain or isolate: LAI ; read by: RT activity ; value: >10 µM
Cc1c(OC(=O)CCCCOc2ccc(C[C@H](N)C(=O)O)cc2)cccc1C(=O)N[C@@H](CSc1ccccc1)[C@H](O)CN1C[C@H]2CCCC[C@H]2C[C@H]1C(=O)NC(C)(C)C ; strain or isolate: LAI ; read by: RT activity ; value: 0.021 µM
CC(C)(C)NC(=O)c1ccccc1OC[C@H](O)[C@H](Cc1ccccc1)NC(=O)[C@H](CC(N)=O)NC(=O)c1ccc2ccccc2n1 ; strain or isolate: IIIB ; read by: cytopathic effect / MTT ; value: 0.72 µM
CC(C)CN(CC(O)Cc1ccccc1C(=O)NC(C)(C)C)S(=O)(=O)c1ccccc1 ; strain or isolate: IIIB ; read by: p24 ; value: <1 µM
Cc1c(Cc2ccc3ccccc3c2)n(COCCO)c(=O)[nH]c1=O ; strain or isolate: LAV ; value: >58.8 µM
O=[N+]([O-])c1cc(COC(CO)CO)c(F)cc1F ; read by: cytopathic effect / MTT ; value: >500 µg/mL
COC(=O)[C@H](C)NP(=O)(OC[C@@H]1C=C[C@H](n2cc(CC(=O)NCCCCCCCCCCNC(=O)C(F)(F)F)c(=O)[nH]c2=O)O1)Oc1ccccc1 ; strain or isolate: LAI ; read by: RT activity ; value: >10 µM
CC(C)CN(CC(O)CCc1ccccc1C(=O)NC(C)(C)C)S(=O)(=O)c1ccccc1 ; strain or isolate: IIIB ; read by: p24 ; value: <1 µM
COc1ccc(-c2nc3ccccc3c(=O)n2NCC(=O)Nc2ccccc2)cc1 ; read by: RT activity ; value: 73.4 µM
CCCc1c(Cc2cccc3ccccc23)n(COCCO)c(=O)[nH]c1=O ; strain or isolate: LAV ; value: 6.247 µM
CCCCCCCCCCCCCCCCOP(=O)(OCCO[C@@H]1O[C@H](CO)[C@@H](O)[C@H](O)[C@@H]1O)OC[C@H]1O[C@@H](n2cc(C)c(=O)[nH]c2=O)C[C@@H]1N=[N+]=[N-] ; strain or isolate: LAV-Bru ; read by: RT activity ; setting: 15 d ; value: <0.2 µM
CCCCCCCCCCCCCCCC(=O)OCC(COC(=O)CCCCCCCCCCCCCCC)OC(=O)CCC(=O)O[C@@H](C[C@@H](Cc1ccccc1)C(=O)N[C@H]1c2ccccc2C[C@H]1OC(=O)CCC(=O)OC(COC(=O)CCCCCCCCCCCCCCC)COC(=O)CCCCCCCCCCCCCCC)CN1CCN(Cc2cccnc2)C[C@H]1C(=O)NC(C)(C)C ; strain or isolate: LAI ; read by: RT activity ; value: 4.6 µM
NC(=O)C(N)Cc1c[nH]c2ccccc12 ; strain or isolate: IIIB ; value: 500 µM
Cc1cn([C@H]2C[C@H](N=[N+]=[N-])[C@@H](CO)O2)c(=O)[nH]c1=O ; strain or isolate: LAI ; read by: RT activity ; value: 0.0021 µM
O=P(O)(O)OP(=O)(O)OP(=O)(O)OP(=O)(O)O ; strain or isolate: IIIB ; read by: cytopathic effect / MTT ; value: >100 µg/mL
C=C(COC)COC(=O)N[C@@H](Cc1ccccc1)[C@H](O)CN(CC(C)C)S(=O)(=O)c1ccc(NC(C)=O)cc1 ; strain or isolate: IIIB ; read by: p24 ; value: <1 µM
COC(=O)Cc1cn([C@H]2C=C[C@@H](COP(=O)(N[C@@H](C)C(=O)OC)Oc3ccccc3)O2)c(=O)[nH]c1=O ; strain or isolate: LAI ; read by: RT activity ; value: 100 µM
CC(C)CN(C(=O)C(=O)C(=O)N(CC(C)C)S(=O)(=O)c1ccc(O)cc1)S(=O)(=O)c1ccccc1 ; strain or isolate: IIIB ; read by: p24 ; value: <1 µM
Cc1cn([C@H]2C[C@H](N=[N+]=[N-])[C@@H](COP(=O)(O)OCCO[C@H]3O[C@H](CO)[C@@H](O)[C@H](O)[C@@H]3O)O2)c(=O)[nH]c1=O ; strain or isolate: LAV-Bru ; read by: RT activity ; setting: 15 d ; value: <0.2 µM
OCCOCc1ccc(F)cc1F ; read by: cytopathic effect / MTT ; value: >500 µg/mL
Cc1cn(C2OC(CO[Si](C)(C)C(C)(C)C)C3(OS(=O)(=O)C=C3N)C2O[Si](C)(C)C(C)(C)C)c(=O)n(CC2CO2)c1=O ; strain or isolate: IIIB ; read by: syncytia ; value: 0.1 µM
CC(C)(C)NC(=O)c1ccccc1OC[C@@H](O)[C@H](Cc1ccccc1)NC(=O)[C@H](CC(N)=O)NC(=O)c1ccc2ccccc2n1 ; strain or isolate: IIIB ; read by: cytopathic effect / MTT ; value: 2.9 µM
Cc1cc(COCCO)c(F)cc1F ; read by: cytopathic effect / MTT ; value: >500 µg/mL
CC(C)CN(C[C@@H](O)[C@H](Cc1ccccc1)NC(=O)OCc1cccnc1)S(=O)(=O)c1ccc2nonc2c1 ; strain or isolate: IIIB ; read by: p24 ; value: <10 µM
CN(C)C(=O)C1(C)CN(C)C(=O)c2c(O)c(=O)c(-c3ncc(Cc4ccc(F)cc4F)s3)cn21 ; strain or isolate: IIIB ; read by: XTT ; value: 0.0059 µM
Cc1cn(C2OC(CO[Si](C)(C)C(C)(C)C)C3(OS(=O)(=O)C=C3N)C2O[Si](C)(C)C(C)(C)C)c(=O)n(CC(=O)N(CCCl)CCCl)c1=O ; strain or isolate: IIIB ; read by: syncytia ; value: 0.04 µM
NC(=O)[C@@H]1CCCN1 ; strain or isolate: IIIB ; value: 1000 µM
Nc1cccc(S(=O)(=O)N(CC2CCCC2)C[C@@H](O)CN(CCc2ccccc2)CC(=O)c2ccccc2)c1 ; strain or isolate: IIIB ; read by: p24 ; value: <1 µM
Cc1cn(C2OC(CO[Si](C)(C)C(C)(C)C)C3(OS(=O)(=O)C=C3N)C2O[Si](C)(C)C(C)(C)C)c(=O)n(/C=C\CO)c1=O ; strain or isolate: IIIB ; read by: syncytia ; value: 0.12 µM
CC(C)(C)NC(=O)[C@@H]1C[C@@H]2CCCC[C@@H]2CN1C[C@@H](OC(=O)NCCCCOc1ccc(C[C@H](N)C(=O)O)cc1)[C@H](Cc1ccccc1)NC(=O)[C@H](CC(N)=O)NC(=O)c1ccc2ccccc2n1 ; strain or isolate: LAI ; read by: RT activity ; value: 2.3 µM

For reference, 4 entries again:

structure | strain or isolate | read by | setting | value
CC(C)CN(CC(O)Cc1ccccc1C(=O)NC(C)(C)C)S(=O)(=O)c1ccccc1 | IIIB | p24 |  | <1 µM
CC(C)CN(CC(O)CCc1ccccc1C(=O)NC(C)(C)C)S(=O)(=O)c1ccccc1 | IIIB | p24 |  | <1 µM
COc1ccc(-c2nc3ccccc3c(=O)n2NCC(=O)Nc2ccccc2)cc1 |  | RT activity |  | 73.4 µM
O=[N+]([O-])c1cc(COCCO)c(F)cc1F |  | cytopathic effect / MTT |  | >500 µg/mL

An empty or dashed field is not shown. ECn: concentration that inhibits the pathogen or its effect by n%.